Laboratory results as given in US8603769B2, “Method for direct and rapid identification of microorganisms and antimicrobial susceptibility testing from positive blood cultures” (Becton, Dickinson and Company, priority 2011, dated 2013).

Experiments:
[1] = test system: Staphylococcus and Enterococcus test strains; assay: AST testing on BD Phoenix ID/AST panel: MIC of Test Method (pellet from PBC) vs Control (plated pure culture), essential agreement; format: cell-based; settings: 12 strains
Streptococcus strains = assay: AST testing on BD Phoenix ID/AST panel: MIC of Test Method vs Control, essential agreement; format: cell-based
[2] = samples prepared with lysis buffer #1
[3] = samples prepared with lysis buffer #2
[4] = samples prepared with lysis buffer #1, 7 strains
[5] = samples prepared with lysis buffer #2, 8 strains

Row | Compound | % EA [1, 2] | EA (strains with MIC dilution difference -1 to +1 vs Control) [1, 2] | % EA [1, 3] | EA (strains with MIC dilution difference -1 to +1 vs Control) [1, 3] | % EA (Streptococcus strains; [4]) | EA (strains with MIC dilution difference -1 to +1 vs Control) (Streptococcus strains; [4]) | % EA (Streptococcus strains; [5]) | EA (strains with MIC dilution difference -1 to +1 vs Control) (Streptococcus strains; [5])
1 | CC1(C)S[C@@H]2[C@H](NC(=O)[C@H](N)c3ccccc3)C(=O)N2[C@H]1C(=O)O [AM, Ampicilin] | 91.7% | 11 | 83.3% | 10 |  |  |  | 
2 | CC1(C)S[C@@H]2[C@H](NC(=O)[C@H](N)c3ccc(O)cc3)C(=O)N2[C@H]1C(=O)O [AMX, Amoxicillin] |  |  |  |  | 100.0% | 7 | 100.0% | 8
3 | O=C(N[C@H](CO)[C@H](O)c1ccc([N+](=O)[O-])cc1)C(Cl)Cl [C, Chloramphenicol] |  |  |  |  | 100.0% | 7 | 100.0% | 8
4 | CO/N=C(\C(=O)N[C@@H]1C(=O)N2C(C(=O)O)=C(COC(C)=O)CS[C@H]12)c1csc(N)n1 [CTX, Cefotaxime] |  |  |  |  | 100.0% | 7 | 100.0% | 8
5 | CCCCCCCCCC(=O)N[C@@H](Cc1c[nH]c2ccccc12)C(=O)N[C@H](CC(N)=O)C(=O)N[C@@H](CC(=O)O)C(=O)N[C@@H]1C(=O)NCC(=O)N[C@@H](CCCN)C(=O)N[C@@H](CC(=O)O)C(=O)N[C@H](C)C(=O)N[C@@H](CC(=O)O)C(=O)NCC(=O)N[C@H](CO)C(=O)N[C@@H]([C@H](C)CC(=O)O)C(=O)N[C@@H](CC(=O)c2ccccc2N)C(=O)O[C@@H]1C [DAP, Daptomycin] | 100.0% | 12 | 100.0% | 12 |  |  |  | 
6 | CC[C@H]1OC(=O)[C@H](C)[C@@H](O[C@H]2C[C@@](C)(OC)[C@@H](O)[C@H](C)O2)[C@H](C)[C@@H](O[C@@H]2O[C@H](C)C[C@H](N(C)C)[C@H]2O)[C@](C)(O)C[C@@H](C)C(=O)[C@H](C)[C@@H](O)[C@]1(C)O [E, Erythromycin] | 75.0% | 9 | 83.3% | 10 | 100.0% | 7 | 100.0% | 8
7 | CO/N=C(\C(=O)N[C@@H]1C(=O)N2C(C(=O)[O-])=C(C[N+]3(C)CCCC3)CS[C@H]12)c1csc(N)n1 [FEP, Cefepime] |  |  |  |  | 100.0% | 7 | 100.0% | 8
8 | CO[C@@]1(NC(=O)Cc2cccs2)C(=O)N2C(C(=O)O)=C(COC(N)=O)CS[C@@H]21 [FOX, Cefoxitin] | 100.0% | 12 | 100.0% | 12 |  |  |  | 
9 | CC(=O)NC[C@H]1CN(c2ccc(N3CCOCC3)c(F)c2)C(=O)O1 [LZD, Linezolid] | 100.0% | 12 | 100.0% | 12 | 100.0% | 7 | 100.0% | 8
10 | C[C@@H](O)[C@H]1C(=O)N2C(C(=O)O)=C(S[C@@H]3CN[C@H](C(=O)N(C)C)C3)[C@H](C)[C@H]12 [MEM, Meropenem] |  |  |  |  | 100.0% | 7 | 100.0% | 8
11 | Cc1onc(-c2ccccc2)c1C(=O)N[C@@H]1C(=O)N2[C@@H]1SC(C)(C)[C@@H]2C(=O)O [OX, Oxacillin] | 83.3% | 10 | 83.3% | 10 |  |  |  | 
12 | CO[C@H]1/C=C/O[C@@]2(C)Oc3c(C)c(O)c4c(O)c(c(/C=N/N5CCN(C)CC5)c(O)c4c3C2=O)NC(=O)/C(C)=C\C=C\[C@H](C)[C@H](O)[C@@H](C)[C@@H](O)[C@@H](C)[C@H](OC(C)=O)[C@@H]1C [RA, Rifampin] | 100.0% | 12 | 100.0% | 12 |  |  |  | 
13 | CN[C@@H]1[C@H](O[C@H]2[C@H](O[C@H]3[C@H](O)[C@@H](O)[C@H](N=C(N)N)[C@@H](O)[C@@H]3N=C(N)N)O[C@@H](C)[C@]2(O)C=O)O[C@@H](CO)[C@H](O)[C@H]1O [STS, High-level streptomycin] | 100.0% | 12 | 100.0% | 12 |  |  |  | 
14 | CC[C@H]1OC(=O)[C@H](C)C(=O)[C@H](C)[C@@H](O[C@@H]2O[C@H](C)C[C@H](N(C)C)[C@H]2O)[C@](C)(OC)C[C@@H](C)C(=O)[C@H](C)[C@H]2N(CCCCn3cnc(-c4cccnc4)c3)C(=O)O[C@]12C [TEL, Telithromycin] |  |  |  |  | 100.0% | 7 | 100.0% | 8
15 | CN[C@H](CC(C)C)C(=O)N[C@H]1C(=O)N[C@@H](CC(N)=O)C(=O)N[C@H]2C(=O)N[C@H]3C(=O)N[C@H](C(=O)N[C@H](C(=O)O)c4cc(O)cc(O)c4-c4cc3ccc4O)[C@H](O)c3ccc(c(Cl)c3)Oc3cc2cc(c3O[C@@H]2O[C@H](CO)[C@@H](O)[C@H](O)[C@H]2O[C@H]2C[C@](C)(N)[C@H](O)[C@H](C)O2)Oc2ccc(cc2Cl)[C@H]1O [VA, Vancomycin] | 75.0% | 9 | 75.0% | 9 | 100.0% | 7 | 100.0% | 8
16 | Bactrim [SXT] | 100.0% | 12 | 91.7% | 11 | 100.0% | 7 | 100.0% | 8
17 | Gentamicin [GM] | 91.7% | 11 | 91.7% | 11 |  |  |  | 
18 | High-level Gentamicin [GMS] |  | 12 |  | 12 |  |  |  | 
19 | Penicillin | 100.0% | 12 | 91.7% | 11 | 71.4% | 5 | 75.0% | 6
20 | Synercid | 100.0% | 12 | 91.7% | 11 | 100.0% | 7 | 100.0% | 8
21 | Teicoplanin [TEC] |  |  |  |  | 100.0% | 7 | 100.0% | 8
